Laboratory results published in patent publication US20160296499A1, “Spiroindoline Antiparasitic Derivatives” (ZOETIS SERVICES LLC, priority 2013, published 2016).

Key:
[1] = tested on: Dirofilaria immitis microfilariae; test: Dirofilaria immitis, Microfilariae (DiMF) In Vitro Assay; conditions: MEC, decrease in microfilariae motility by visual assessment; 72 hours; curve starting at 100 μM
Protocol: Dirofilaria immitis, Microfilariae (DiMF) In Vitro Assay
Compounds were initially dissolved in DMSO. The stock concentration was subsequently diluted in basal media and serially diluted to give a concentration response curve starting at 100 μM (11 total concentrations). Following the serial dilution, compound solution was transferred to an assay plate (384-well) where D.i. microfilariae (˜200/well) that have been purified from microfilaremic canine blood were subsequently added. […] Each compound was evaluated for decrease in microfilariae motility by subjective visual assessment and endpoint data were recorded as minimally effective dose (MEC) in μM following the incubation period.

[2] = tested on: Haemonchus contortus L3; test: Haemonchus contortus, Larvae Stage 3 (HcL3) In Vitro Assay; conditions: Minimal Effective Concentration whereby worm motility is inhibited by approximately 70%; 96 hours, 37° C.; tested 0.001-100 μM
Protocol: Haemonchus contortus, Larvae Stage 3 (HcL3) In Vitro Assay
The Haemonchus contortus L3 strain was obtained from the University of Georgia and is a relatively recent multiple-resistant field isolate (International Journal for Parasitology 37 (2007) 795-804). Compounds were dissolved in DMSO to give an initial concentration of 30 mM. The stock concentration was subsequently titrated in basal media to give an eleven point half-log concentration curve for testing. Following the serial dilution, 250 nl of each compound solution was transferred to an assay plate (384-well) whereby 25 μL of exsheathed worms (˜100 larvae/well) were subsequently added. The final compound concentrations in the 384-well plate following worm addition ranged from 0.001-100 μM. Assay plates were incubated at 37° C. and observed at 96 hours for drug effect. Endpoint data (Table 2, HcL3) are recorded as a Minimal Effective Concentration (MEC) whereby worm motility is inhibited by approximately 70%.

O=C(NCc1ccnc(Cl)c1)N1CC2(CCN(C/C=C/c3ccc(F)cc3)CC2)c2c1ccc1sncc21
Di MF [1]: 10 µM | HcL3 MEC [2]: >100 µM

O=C(NCc1ccnc(Cl)c1)N1CC2(CCN(Cc3ccc4cc(F)ccc4n3)CC2)c2c1ccc1sncc21
Di MF [1]: 10 µM | HcL3 MEC [2]: >100 µM

O=C(NCc1ccnc(Cl)c1)N1CC2(CCN(C/C=C/c3ccc(C(F)(F)F)cn3)CC2)c2c1ccc1sncc21
Di MF [1]: 33 µM | HcL3 MEC [2]: >100 µM
